## PSTVd stem 15 mutant pool in Nicotiana benthamiana

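A pool of all variants was put on leaves of three Nicotiana benthamiana plants. Progeny were sequenced from the inoculated region (day 5), the margin of the inoculated leaf (day 10) and systemic leaves (day 12).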

The pool varies stem 15 of the PSTVd intermediate strain in the pattern CUGGAGCGAUNGNNUNNG; wild type is CUGGAGCGAUCGCUUCGG (upper and lower strand joined, each 5' to 3', the first 9 letters being the upper strand).

Numbers give reads per thousand; 0 = not seen among the reads, higher = more abundant.
Each site shows the three plants.
"Pool" is the share in the plasmid pool used as inoculum, on the same scale.
The inoculated region was read from the minus strand, the other sites from the plus strand.
The authors trace changes outside the varied positions to PCR and sequencing errors or to mutation in the plant; presence does not show that a variant is infectious alone.

For CUGGAGCGAUGGGCUCUG (pool 0.824) the result was inoculated region 0.274 / 0.230 / 0.298; leaf margin 0.0827 / 0.0273 / 0.0159; systemic leaves 0 / 0 / 0. With CUAGAGCGAUCGCGUCAG (pool 0.0162) the assay gave inoculated region 0 / 0 / 0; leaf margin 0 / 0 / 0; systemic leaves 0 / 0 / 0. For CUGGAGCGAUCGAUUCAG (pool 0.727) the result was inoculated region 0.352 / 0.293 / 0.335; leaf margin 0.0827 / 0.0273 / 0.0317; systemic leaves 0 / 0 / 0. For CUGGAGCGAUAGGCUAGG (pool 1.81) the result was inoculated region 0.724 / 1.09 / 0.986; leaf margin 0.103 / 0.0545 / 0.0476; systemic leaves 0 / 0.0222 / 0.0199. CUGGAGCGAUUGACUUUG (pool 0.743) read inoculated region 1.80 / 1.32 / 1.49; leaf margin 0.0414 / 0.0545 / 0.0159; systemic leaves 0 / 0 / 0.

With CUGGAGCGAUCGUCUGUG (pool 0.970) the assay gave inoculated region 0.254 / 0.230 / 0.298; leaf margin 0.0620 / 0 / 0.0317; systemic leaves 0 / 0 / 0. With CUGGAGCGAUUGGGUCCG (pool 0.824) the assay gave inoculated region 0.254 / 0.356 / 0.335; leaf margin 0.0414 / 0.0545 / 0.0159; systemic leaves 0 / 0 / 0. For CUGGAGCGAUCGCUUAUG (pool 0.970) the result was inoculated region 0.235 / 0.209 / 0.391; leaf margin 0 / 0 / 0.0317; systemic leaves 0.0198 / 0 / 0.0199. With CUGGAGCGAUAGGCUCAG (pool 0.824) the assay gave inoculated region 0.254 / 0.147 / 0.335; leaf margin 0.0414 / 0 / 0; systemic leaves 0 / 0 / 0. With CUGGAGCGAUCGGGUAAG (pool 1.24) the assay gave inoculated region 0.333 / 0.314 / 0.279; leaf margin 0.0620 / 0.0273 / 0.0476; systemic leaves 0 / 0 / 0.

For CUGGAGCGAUAGUCUUGG (pool 0.905) the result was inoculated region 2.05 / 0.817 / 1.27; leaf margin 0.600 / 0 / 0.840; systemic leaves 0.950 / 0 / 0. For CUGGAGCGAUAGAUUUCG (pool 0.711) the result was inoculated region 0.235 / 0.314 / 0.279; leaf margin 0.0827 / 0.0273 / 0.0317; systemic leaves 0 / 0 / 0. For CUGGAGCGAUCGCGUUUG (pool 0.711) the result was inoculated region 0.196 / 0.209 / 0.298; leaf margin 0.0207 / 0 / 0.0317; systemic leaves 0 / 0 / 0. With CUGGAGCGAUAGAGUCGG (pool 0.840) the assay gave inoculated region 0.352 / 0.314 / 0.298; leaf margin 0.103 / 0 / 0.0159; systemic leaves 0 / 0 / 0. CUGGAGCGAUGGGCUUCG (pool 0.857) read inoculated region 0.294 / 0.126 / 0.316; leaf margin 0.0620 / 0.0273 / 0.0159; systemic leaves 0 / 0 / 0.

CUGGAGCGAUCGGCUUAG (pool 1.21) read inoculated region 1.59 / 1.19 / 1.84; leaf margin 0.620 / 0.572 / 0.904; systemic leaves 0.495 / 0.443 / 0. For CUGGAGCGAUAGGUUCGG (pool 0.792) the result was inoculated region 0.235 / 0.251 / 0.316; leaf margin 0 / 0 / 0.0476; systemic leaves 0 / 0 / 0. For CUGGAGCGAUUGUGUGAG (pool 0.954) the result was inoculated region 1.39 / 1.09 / 1.36; leaf margin 0.662 / 0.0273 / 0.904; systemic leaves 0.713 / 0 / 0. CUGGAGCGAUGGACUCCG (pool 0.970) read inoculated region 0.215 / 0.188 / 0.261; leaf margin 0 / 0.0818 / 0.0476; systemic leaves 0 / 0 / 0. For CAGGAGCGAUGGACUGAG (pool 0.0162) the result was inoculated region 0 / 0 / 0; leaf margin 0 / 0 / 0; systemic leaves 0 / 0 / 0.

CUGGAGCGAUCGGCUGUG (pool 0.727) gave inoculated region 0.294 / 0.251 / 0.372; leaf margin 0.0620 / 0.0273 / 0; systemic leaves 0 / 0 / 0. AUGGAGCGAUCGUCUCCG (pool 0.0162) read inoculated region 0 / 0 / 0; leaf margin 0 / 0 / 0; systemic leaves 0 / 0 / 0. With CUGGAGCGAUUGAAUAGG (pool 0.792) the assay gave inoculated region 0.294 / 0.272 / 0.372; leaf margin 0.0207 / 0 / 0.0317; systemic leaves 0 / 0 / 0. With CUGGAGCGAUAGAGUGUG (pool 0.840) the assay gave inoculated region 0.254 / 0.230 / 0.316; leaf margin 0.0827 / 0.0273 / 0.0159; systemic leaves 0 / 0 / 0. CUGGAGCGAUCGGUUUCG (pool 0.792) gave inoculated region 0.333 / 0.230 / 0.223; leaf margin 0.0207 / 0 / 0.0159; systemic leaves 0 / 0 / 0.

With CUGGAGCGAUCGAGUCCG (pool 2.13) the assay gave inoculated region 0.724 / 0.712 / 0.726; leaf margin 0.124 / 0 / 0.0317; systemic leaves 0 / 0 / 0.0199. For CUGGAGCGAUUGUUUGUG (pool 1.00) the result was inoculated region 0.411 / 1.21 / 0.465; leaf margin 0.0414 / 0.0545 / 0; systemic leaves 0 / 0 / 0.0199. CUGGAGCGAUUGCGUCUG (pool 0.566) gave inoculated region 0.196 / 0.440 / 0.372; leaf margin 0.0414 / 0.0545 / 0.0317; systemic leaves 0 / 0 / 0. With CUGGAGCGAUAGUAUAGG (pool 0.889) the assay gave inoculated region 0.235 / 0.209 / 0.261; leaf margin 0.0414 / 0.0273 / 0.0159; systemic leaves 0 / 0 / 0. With CUGGAUCGAUUGCGUAGG (pool 0.0162) the assay gave inoculated region 0 / 0 / 0; leaf margin 0 / 0 / 0; systemic leaves 0 / 0 / 0.

CUGGAGCGAUCGCUUAAG (pool 0.776) read inoculated region 0.235 / 0.272 / 0.223; leaf margin 0.103 / 0 / 0.0159; systemic leaves 0 / 0 / 0. With CUGGAGCGAUCGAAUAAG (pool 0.711) the assay gave inoculated region 0.391 / 0.230 / 0.372; leaf margin 0.103 / 0.0273 / 0.0159; systemic leaves 0 / 0 / 0. With CUGGAGCGAUAGCAUAGG (pool 0.760) the assay gave inoculated region 0.254 / 0.356 / 0.335; leaf margin 0 / 0.0273 / 0.0317; systemic leaves 0 / 0 / 0. CUGGAGCGAUCGUAUCGG (pool 0.840) read inoculated region 0.254 / 0.230 / 0.372; leaf margin 0.0207 / 0.0273 / 0.0317; systemic leaves 0 / 0 / 0. CUGGAGCGAUGGUGUUGG (pool 1.00) gave inoculated region 0.372 / 0.293 / 0.316; leaf margin 0.0620 / 0.0818 / 0.0317; systemic leaves 0 / 0 / 0.

For CUGGAGCGAUCGGUUAGG (pool 0.792) the result was inoculated region 0.254 / 0.188 / 0.261; leaf margin 0.0207 / 0.0818 / 0.0476; systemic leaves 0 / 0 / 0. CUGGAGCGAUAGGAUCCG (pool 0.857) gave inoculated region 0.274 / 0.272 / 0.335; leaf margin 0.103 / 0.0273 / 0.0159; systemic leaves 0 / 0 / 0. With CUGGAGCGAUAGUUUUAG (pool 0.937) the assay gave inoculated region 2.62 / 1.05 / 1.41; leaf margin 0.641 / 0 / 0.745; systemic leaves 1.07 / 0 / 0. With CUGGAGCGAUUGGGUUAG (pool 1.07) the assay gave inoculated region 2.37 / 1.32 / 1.58; leaf margin 0.641 / 0.409 / 1.03; systemic leaves 0.733 / 0.443 / 0. CUGGAGCGAUGGCAUCCG (pool 0.646) gave inoculated region 0.176 / 0.251 / 0.223; leaf margin 0.0414 / 0.0545 / 0.0317; systemic leaves 0 / 0 / 0.

Extract of 4 entries:

CUGGAGCGAUAGAGUCGG (pool 0.840): inoculated region 0.352 / 0.314 / 0.298; leaf margin 0.103 / 0 / 0.0159; systemic leaves 0 / 0 / 0.
CUGGAGCGAUAGUAUAGG (pool 0.889): inoculated region 0.235 / 0.209 / 0.261; leaf margin 0.0414 / 0.0273 / 0.0159; systemic leaves 0 / 0 / 0.
CUGGAGCGAUCGGGUAAG (pool 1.24): inoculated region 0.333 / 0.314 / 0.279; leaf margin 0.0620 / 0.0273 / 0.0476; systemic leaves 0 / 0 / 0.
CAGGAGCGAUGGACUGAG (pool 0.0162): inoculated region 0 / 0 / 0; leaf margin 0 / 0 / 0; systemic leaves 0 / 0 / 0.

Wild type was 10.2 per thousand in the pool and the most common sequence in every sample (inoculated region 285, 367, 312; leaf margin 785, 865, 782; systemic leaves 854, 898, 915).
Samples held 36,693 to 63,082 reads, so the smallest values rest on one or two reads.

Source: Wu et al. 2024 (doi:10.1371/journal.ppat.1012142), supplementary data.